Measurements as given in ChEMBL document CHEMBL3098104, “Design, synthesis and preliminary SAR studies of novel N-arylmethyl substituted piperidine-linked aniline derivatives as potent HIV-1 NNRTIs” (Bioorg Med Chem, 2014).

Target: Human immunodeficiency virus type 1 reverse transcriptase (Human immunodeficiency virus 1, UniProt Q72547)
Assay: Inhibition of wild-type HIV1 reverse transcriptase assessed as incorporation of biotin-labeled dUTP
Summary of the method: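 HIV-1 RT enzyme assay with poly(A)·oligo(dT)15 as template-primer. Incorporation of digoxigenin- and biotin-labeled dUTP into DNA was read colorimetrically with the peroxidase substrate ABTS.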

SMILES: Cc1cc(C#N)cc(C)c1Oc1nc(Nc2ccc(C#N)cc2)nc(N)c1Br [ETRAVIRINE]
- IC50: 71 nM
